Results of unrelated studies side by side (data: NIAID ChemDB).

Shared fields: tests in culture; agent: Candida albicans

ECn is the concentration giving n% inhibition of infection, replication or growth.

structure,strain or isolate,endpoint,method,value
CC(C)(C)C1CCC(CN2C3=NC[C@H](CC4CCCCC4)N3C[C@@H]2C2CCCCC2)CC1,ATCC 10231,EC50,-,7.3 µg/mL
CC(C)[C@]1(O)CC[C@]2(C)C=C[C@@](C)(O)C[C@H](OCC(=O)c3ccccc3)[C@H]21,-,EC90,broth dilution,>50 µg/mL
CC1(C)O[C@H]2O[C@H](C3=NOC(Cc4ccc(O)cc4)C3)[C@H](OCc3ccccc3)[C@H]2O1,-,MIC,-,>50 µg/mL
C=C(C)[C@@H]1CCC(C)(O)[C@H](Br)CCC2C(C)=CCC(C)=C2Cc2cc(ccc2O)C(=O)O1,-,MIC,-,46 µM
CO[C@@H]1[C@H]2OC(C)(C)O[C@H]2O[C@@H]1C1=NOC(CO)C1,-,MIC,-,>50 µg/mL
CC(=O)N1CCN(c2nc(Nc3ccc(C#N)c(C(F)(F)F)c3)nc(Oc3cccc4cccnc34)n2)CC1,MTCC 183,MIC,agar,100 µg/mL
CN(Cc1cccc2ccccc12)/N=C\C#CC(C)(C)C,-,MIC,-,>64 µg/mL
CCN1C2=NC[C@@H](CC3CCCCC3)N2C[C@@H]1Cc1ccccc1,ATCC 10231,EC50,-,>64 µg/mL
CCCCCCCCOc1ccc(C(=O)NC2C[C@@H](O)[C@@H](O)NC(=O)C3[C@@H](O)[C@@H](C)CN3C(=O)C(C(C)O)NC(=O)C([C@H](O)[C@@H](O)c3ccc(O)cc3)NC(=O)C3C[C@@H](O)CN3C(=O)C(C(C)O)NC2=O)cc1,-,MIC,-,0.62 µg/mL
NN(Cc1ccccc1)CC(O)(Cn1cncn1)c1ccc(F)cc1F,ATCC 36082,MIC80,-,1 µg/mL
CC(C)[C@]1(O)CC[C@]2(C)C[C@@H]3O[C@]3(C)C[C@H](OC(=O)c3ccccc3)C21,SC5314,MIC,-,>50 µg/mL
N#Cc1ccc2[nH+]c3c4ccccc4n(CCCCCC4CCCCC4)c3cc2c1,ATCC 90028,EC50,-,>50 µg/mL
CN(Cc1cccc2ccccc12)/N=C\c1ccc2ccccc2c1,-,MIC,-,>64 µg/mL
CC(C)(C)C1CCC(CN2C3=NC[C@@H](C4CCCCC4)N3C[C@@H]2C2CCCCC2)CC1,ATCC 10231,EC50,-,16.8 µg/mL
COC(=O)[C@@H]1N=C1/C=C\CCCCCCCCCCCCC(C)(C)C,UCD-FR1,MIC,-,>64 µg/mL
COc1ccc(/C=C2/SC(c3ccccc3)N(NC(=O)c3ccc(-c4ccccc4)cc3)C2=O)cc1,MTCC 8184,MIC,-,3.12 µg/mL
C=C1CC[C@H](Br)[C@@]2(C)CC[C@@H](Br)[C@@]3(C)CC[C@H](OC(=O)c4ccc(O)c(c4)C[C@H]12)C(C)(C)O3,-,MIC,-,45 µM
CCC(C)CC(C)CCCCCCCCC(=O)NC1C[C@H](O)[C@@H](O)NC(=O)[C@@H]2[C@@H](O)[C@@H](C)CN2C(=O)[C@H]([C@H](O)CC(N)=O)NC(=O)[C@H](C(O)[C@H](O)c2ccc(O)cc2)NC(=O)[C@@H]2C[C@@H](O)CN2C(=O)[C@H]([C@@H](C)O)NC1=O,-,MIC,-,0.12–2 µg/mL
CN(Cc1cccc2ccccc12)/N=C\c1ccccc1Cl,-,MIC,-,>64 µg/mL
N#Cc1ccc(Nc2nc(Oc3cccc4cccnc34)nc(N3CCN(c4cccc(Cl)c4)CC3)n2)cc1C(F)(F)F,MTCC 183,MIC,agar,12.5 µg/mL
COCC(=O)OC[C@H]1CC[C@@](C)(C=O)[C@]1(C)C(=O)O,2005E,MIC,-,459 µM
CN1C(c2ccccc2)CC2(CC1c1ccccc1)NNC(=S)N2,-,MIC,-,100 µg/mL
COc1ccc(/C=N\N(C)Cc2cccc3ccccc23)cc1,-,MIC,-,>64 µg/mL
CCC(C)CC(C)CCCCCCCCC(=O)N[C@H]1C[C@@H](O)[C@@H](OCCN)NC(=O)[C@@H]2[C@@H](O)CCN2C(=O)[C@H]([C@@H](O)CCN)NC(=O)[C@H]([C@H](O)[C@@H](O)c2ccc(O)cc2)NC(=O)[C@@H]2C[C@@H](O)CN2C(=O)[C@H]([C@H](C)O)NC1=O,-,MIC,-,0.06 µg/mL
CC1=C[C@H](OC(=O)c2ccccc2)C2[C@](C)(CC[C@@]2(O)C(C)C)C/C1=C/CO,SC5314,MIC,-,>50 µg/mL
CCCCCCCCCCCCCCCC1=N[C@H]1C(=O)OC,ATCC 14503,MIC,-,14–15 µg/mL
COC(=O)[C@@H]1[C@H](C(=O)OC)[C@H](c2cccc3ccccc23)N(C(=S)NC(=O)c2ccccc2)[C@@H]1C(=O)OC,ATCC 90028,MIC,-,50 µg/mL
CN(Cc1cccc2ccccc12)/N=C\c1ccccc1F,-,MIC,-,>64 µg/mL
COC(=O)[C@]1(C)[C@@H]2C(=O)N(C)C(=O)[C@@H]2[C@H](c2ccccc2I)N1C(=S)NC(=O)c1ccccc1,ATCC 90028,MIC,-,100 µg/mL
CC1(C)O[C@H]2O[C@H](C3=NOC(C#N)C3)[C@H](OCc3ccccc3)[C@H]2O1,-,MIC,-,>50 µg/mL
Cc1ccc(C2CC3(CC(c4ccc(C)cc4)N2C)NNC(=S)N3)cc1,-,MIC,-,200 µg/mL
CCCCCCCCCCCCC/C=C\C1=NC1C(=O)OC,ATCC 14503,MIC,-,2–3 µg/mL
CC1=C2Cc3cc(ccc3O)C(=O)O[C@H]3CC[C@@](C)(OC3(C)C)[C@H](Br)CC[C@]2(C)[C@@H](Br)CC1,-,MIC,-,>90 µM
N#Cc1ccc(Nc2nc(Oc3cccc4cccnc34)nc(N3CCN(c4ccccc4)CC3)n2)cc1C(F)(F)F,MTCC 183,MIC,agar,50 µg/mL
COc1ccc(CCN2C3=NC[C@H](Cc4ccccc4)N3C[C@@H]2Cc2ccccc2)cc1OC,ATCC 10231,MIC,-,>250 µg/mL
CN(Cc1cccc2ccccc12)/N=C\c1ccccc1,-,MIC,-,>64 µg/mL
COc1cc(C(=O)CO[C@H]2C=C(C)C(=O)C[C@@]3(C)CC[C@@](O)(C(C)C)[C@H]23)ccc1O,-,EC90,broth dilution,>50 µg/mL
CC(C)(C)C1CCC(CN2C3=NC[C@@H](CC4CCCCC4)N3C[C@H]2C2CCCCC2)CC1,ATCC 10231,MIC,-,10–16 µg/mL
O=C(NN1C(=O)/C(=C\c2cccc(Br)c2)SC1c1ccccc1)c1ccc(-c2ccccc2)cc1,MTCC 8184,MIC,-,3.12 µg/mL
Cc1cccc(/C=N\N(C)Cc2cccc3ccccc23)c1,-,MIC,-,>64 µg/mL
CC(C)(C)C1CCC(CN2C3=NC[C@@H](CC4CCCCC4)N3C[C@@H]2CC2CCCCC2)CC1,ATCC 10231,EC50,-,2.3 µg/mL
Cc1nn([C@H](C)[C@](O)(Cn2cncn2)c2ccc(F)cc2F)c2ccc([N+](=O)[O-])cc12,ATCC 36082,MIC80,-,0.015 µg/mL
CC(C)CCOC[C@H]1CC[C@@](C)(C=O)[C@]1(C)C(=O)O,2005E,EC50,-,185 µM
C/C=C/C=C(/C)C(=O)O[C@H]1[C@H](O)[C@H](OCC23C4C=C(C(C)C)C2(C(=O)O)C(C=O)(C4)[C@@H]2CC[C@@H](C)[C@H]23)O[C@H](C)[C@H]1OC,1208E,MIC,-,0.06 µg/mL
COc1ccc(C2CC3(NNC(=S)N3)C(C)C(c3ccc(OC)cc3)N2C)cc1,-,MIC,-,25 µg/mL
CCCCCCCCCCCCCCCC(=O)NC1CC(O)C(O)NC(=O)C2C(O)C(C)CN2C(=O)C(C(O)CC(N)=O)NC(=O)C(C(O)C(O)c2ccc(O)c(OS(=O)(=O)O)c2)NC(=O)C2CC(O)CN2C(=O)C(C(C)O)NC1=O,-,MIC,-,0.16 µg/mL
C[n+]1c2ccccc2cc2c1c1ccccc1n2CCCCCc1ccccc1,ATCC 90028,EC50,-,>20 µg/mL
CCOC(=O)C1CC([C@H]2O[C@@H]3OC(C)(C)O[C@@H]3[C@H]2OCc2ccccc2)=NO1,-,MIC,-,>50 µg/mL
CCC(C)[C@@]1(C(=O)OC)C[C@H](C(=O)OC)[C@H](c2ccccc2)N1C(=S)NC(=O)c1ccccc1,ATCC 90028,MIC,-,50 µg/mL
CC1(C)O[C@H]2[C@@H](O1)[C@@H](C1=NOC(Cc3ccc(O)cc3)C1)O[C@@H]1OC(C)(C)O[C@@H]12,-,MIC,-,>50 µg/mL
OC(Cn1cncn1)(Cn1cncn1)c1ccc(F)cc1F,-,MIC,broth dilution,1 µg/mL
CCOC1CC([C@H]2O[C@@H]3OC(C)(C)O[C@@H]3[C@H]2OC)=NO1,-,MIC,-,>50 µg/mL
C[C@@]1(C=O)CC[C@H](CO)[C@@]1(C)C(=O)O,2005E,MIC,-,>624 µM
O=C(NN1C(=O)/C(=C\c2ccccc2)SC1c1ccc(F)cc1)c1ccc(-c2ccccc2)cc1,MTCC 8184,MIC,-,6.25 µg/mL
Cc1nn([C@H](C)[C@](O)(Cn2cncn2)c2ccc(F)cc2F)c2ccc(F)cc12,ATCC 36082,MIC80,-,0.031 µg/mL
COc1ccc(CC2CC([C@H]3O[C@@H]4OC(C)(C)O[C@@H]4[C@H]3OCc3ccccc3)=NO2)cc1,-,MIC,-,>50 µg/mL
Cc1nn([C@H](C)[C@](O)(Cn2cncn2)c2ccc(F)cc2F)c2cc(F)ccc12,ATCC 36082,MIC80,-,0.031 µg/mL
C=CCc1ccc(OC)c(OC)c1,ATCC 10261,MIC90,turbidity,345 µg/mL
Cn1c2ccccc2c2nc3ccc(Br)cc3cc21,ATCC 90028,EC50,-,43 µg/mL
CC1C(c2ccccc2)N(C)C(c2ccccc2)CC12NNC(=S)N2,-,MIC,-,100 µg/mL
c1ccc2c(c1)cc1[nH]c3ccccc3c1[n+]2CCCCCC1CCCCC1,ATCC 90028,EC50,-,<1.3 µg/mL
CCCCCCCCCCCCCCCC(=O)NC1CCC(O)NC(=O)C2C(O)C(C)CN2C(=O)C(C(O)CC(N)=O)NC(=O)C(C(O)Cc2ccc(O)c(OS(=O)(=O)O)c2)NC(=O)C2CC(O)CN2C(=O)C(C(C)O)NC1=O,-,MIC50,-,0.008 µg/mL
C[C@@H](n1nc(-c2ccccc2)c2cc([N+](=O)[O-])ccc21)[C@](O)(Cn1cncn1)c1ccc(F)cc1F,ATCC 36082,MIC80,-,2 µg/mL
COc1ccc2[nH+]c3c4ccccc4n(CCCCCC4CCCCC4)c3cc2c1,ATCC 90028,EC50,-,>50 µg/mL

9 of the rows above, restated:

structure | strain or isolate | endpoint | method | value
C=C(C)[C@@H]1CCC(C)(O)[C@H](Br)CCC2C(C)=CCC(C)=C2Cc2cc(ccc2O)C(=O)O1 | - | MIC | - | 46 µM
CCOC(=O)C1CC([C@H]2O[C@@H]3OC(C)(C)O[C@@H]3[C@H]2OCc2ccccc2)=NO1 | - | MIC | - | >50 µg/mL
CCN1C2=NC[C@@H](CC3CCCCC3)N2C[C@@H]1Cc1ccccc1 | ATCC 10231 | EC50 | - | >64 µg/mL
Cc1nn([C@H](C)[C@](O)(Cn2cncn2)c2ccc(F)cc2F)c2ccc(F)cc12 | ATCC 36082 | MIC80 | - | 0.031 µg/mL
CC(C)(C)C1CCC(CN2C3=NC[C@H](CC4CCCCC4)N3C[C@@H]2C2CCCCC2)CC1 | ATCC 10231 | EC50 | - | 7.3 µg/mL
CC1=C2Cc3cc(ccc3O)C(=O)O[C@H]3CC[C@@](C)(OC3(C)C)[C@H](Br)CC[C@]2(C)[C@@H](Br)CC1 | - | MIC | - | >90 µM
CC(C)(C)C1CCC(CN2C3=NC[C@@H](C4CCCCC4)N3C[C@@H]2C2CCCCC2)CC1 | ATCC 10231 | EC50 | - | 16.8 µg/mL
CC(C)(C)C1CCC(CN2C3=NC[C@@H](CC4CCCCC4)N3C[C@@H]2CC2CCCCC2)CC1 | ATCC 10231 | EC50 | - | 2.3 µg/mL
CN1C(c2ccccc2)CC2(CC1c1ccccc1)NNC(=S)N2 | - | MIC | - | 100 µg/mL

Two numbers with a dash give a range or band. An empty or dashed field is not shown. Rows are shuffled and stem from different studies. A number after MIC or MFC names an inhibition level or a share of isolates.